# PSTVd loop 15 mutant pool in Nicotiana benthamiana

Source: Wu et al. 2024 (doi:10.1371/journal.ppat.1012142), supplementary data.

Region: loop 15 of PSTVd (intermediate strain), upper and lower strand joined, each 5' to 3', the first 7 letters being the upper strand, closing pairs included. Wild type: GGAAACCGCUACUAC. Varied positions (N): GGAAACCGNNNNNNC.

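A pool of all variants was put on leaves of three Nicotiana benthamiana plants. Samples came from the inoculated region at 5 days, the leaf margin at 10 and upper systemic leaves at 12.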

Numbers give reads per thousand; 0 = not seen among the reads, higher = more abundant.
Each site shows the three plants.
"Pool" is the share in the plasmid pool used as inoculum, on the same scale.
The inoculated region was read from the minus strand, the other sites from the plus strand.
IR is the inoculated region, LM the leaf margin, Sys the systemic leaves.
The authors trace changes outside the varied positions to PCR and sequencing errors or to mutation in the plant; presence does not show that a variant is infectious alone.
With 43,870-66,106 reads a sample, very low values are single reads.
Wild type was 33.9 per thousand in the pool and the most common sequence in every sample (inoculated region 202, 200, 159; leaf margin 724, 746, 710; systemic leaves 856, 883, 880).

- GGAAACCGAUCGGUC (pool 0.208) -> IR 0.164 / 0.0482 / 0.152; LM 0.0162 / 0 / 0.0200; Sys 0 / 0 / 0
- GGAAACCGACGGACC (pool 0.304) -> IR 0.115 / 0.0803 / 0.209; LM 0 / 1.96 / 0.0200; Sys 0 / 0 / 0
- GGAAACCGUGCAUCC (pool 0.224) -> IR 0.115 / 0.0964 / 0.0952; LM 0 / 0 / 0; Sys 0.0161 / 0 / 0
- GGAAACCGCAUAGAC (pool 0.240) -> IR 0.0655 / 0.145 / 0.0762; LM 0 / 0 / 0.0401; Sys 0 / 0 / 0.0228
- GGAAACCGGCUCGAC (pool 0.256) -> IR 0.0491 / 0.112 / 0.0952; LM 0.0323 / 0 / 0; Sys 0 / 0 / 0
- GGAAACCGCCGAAAC (pool 0.192) -> IR 0.344 / 0.273 / 0.267; LM 0.178 / 0.0891 / 0.120; Sys 0.0644 / 0 / 0
- GGAAACCGCUAGGGC (pool 0.224) -> IR 0.262 / 0.450 / 0.267; LM 0.178 / 0.111 / 0.220; Sys 0.0805 / 0 / 0
- GGAAACCGGGAGGAC (pool 0.224) -> IR 0.328 / 0.273 / 0.381; LM 0.113 / 0.178 / 0.0801; Sys 0.0322 / 0 / 0.0228
- GGAAACCGCUGCUCC (pool 0.144) -> IR 0.0983 / 0.0803 / 0.0381; LM 0.0323 / 0 / 0.0200; Sys 0 / 0 / 0
- GGAAACCGUGGACGC (pool 0.256) -> IR 0.0819 / 0.112 / 0.133; LM 0 / 0 / 0.0200; Sys 0 / 0 / 0
- GGAAACCGCUAGAGC (pool 0.224) -> IR 0.229 / 0.386 / 0.400; LM 0.0485 / 0.111 / 0.140; Sys 0.0483 / 0 / 0.205
- GGAAACCGGAAGUGC (pool 0.192) -> IR 0.295 / 0.289 / 0.419; LM 0.0808 / 0.0223 / 0.0801; Sys 0.0161 / 0.106 / 0.0684
- GGAAACCGUCACACC (pool 0.240) -> IR 0.0983 / 0.112 / 0.171; LM 0.0162 / 0 / 0; Sys 0 / 0 / 0
- GGAAACCGGGACGCC (pool 0.144) -> IR 0.0819 / 0.0643 / 0.114; LM 0.0162 / 0 / 0.0200; Sys 0.0161 / 0 / 0
- GGAAACCGAAUAAGC (pool 0.256) -> IR 0.131 / 0.241 / 0.171; LM 0 / 0.0668 / 0; Sys 0 / 0 / 0
- GGAAACCGUAAGAAC (pool 0.144) -> IR 0.459 / 0.402 / 0.438; LM 0.113 / 0.445 / 0.160; Sys 0.0161 / 0.0454 / 0.114
- GGAAACCGUGUACGC (pool 0.272) -> IR 0.115 / 0.0321 / 0.228; LM 0 / 0 / 0; Sys 0 / 0 / 0
- GGAAACCGUUUAUCC (pool 0.128) -> IR 0.0819 / 0.0964 / 0.0762; LM 0 / 0.0223 / 0.0200; Sys 0 / 0 / 0
- GGAAACCGGGUAUCC (pool 0.256) -> IR 0.0491 / 0.129 / 0.0571; LM 0 / 0.0223 / 0.0401; Sys 0 / 0 / 0
- GGAAACCGUUUUCCC (pool 0.288) -> IR 0.131 / 0.0964 / 0.0571; LM 0 / 0 / 0.0200; Sys 0 / 0 / 0
- GGAAACCGGACGGGC (pool 0.176) -> IR 0.0983 / 0.0803 / 0.0571; LM 0.0162 / 0 / 0.0200; Sys 0.0161 / 0 / 0
- GGAAACCGUGCGAUC (pool 0.224) -> IR 0.164 / 0.0803 / 0.114; LM 0 / 0.0223 / 0.0200; Sys 0 / 0 / 0
- GGAAACCGGGAUGGC (pool 0.208) -> IR 0.0983 / 0.0482 / 0.171; LM 0.0323 / 0.0223 / 0; Sys 0.0322 / 0 / 0
- GGAAACCGCGGAUGC (pool 0.240) -> IR 0.0491 / 0.0803 / 0.0571; LM 0 / 0 / 0; Sys 0 / 0 / 0
- GGAAACCGUCGCUGC (pool 0.176) -> IR 0.180 / 0.0643 / 0.0762; LM 0 / 0 / 0.0200; Sys 0.0161 / 0 / 0
- GGAAACCGGAGUUCC (pool 0.256) -> IR 0.115 / 0.112 / 0.0952; LM 0 / 0 / 0; Sys 0 / 0 / 0
- GGAAACCGAGGCUCC (pool 0.176) -> IR 0.0983 / 0.0643 / 0.0762; LM 0.0323 / 0 / 0; Sys 0 / 0 / 0
- GGAAACCGCACGGGC (pool 0.352) -> IR 0.131 / 0.112 / 0.0952; LM 0 / 0 / 0; Sys 0 / 0 / 0
- GGAAACCGUUAGUUC (pool 0.240) -> IR 0.262 / 0.257 / 0.419; LM 0.0808 / 0.111 / 0.180; Sys 0.0322 / 0 / 0
- GGAAACCGAGCAGAC (pool 0.272) -> IR 0.0819 / 0.129 / 0.0381; LM 0 / 0 / 0.0200; Sys 0 / 0 / 0
- GGAAACCGAUACCAC (pool 0.256) -> IR 0.311 / 0.289 / 0.305; LM 0.0970 / 0.0668 / 0.160; Sys 0.0805 / 0.0605 / 0.137
- GGAAACCGAGACCCC (pool 0.208) -> IR 0.0983 / 0.0643 / 0.0952; LM 0 / 0.0223 / 0.0200; Sys 0 / 0 / 0.0228
- GGAAACCGCCGAUAC (pool 0.224) -> IR 0.278 / 0.193 / 0.381; LM 0.0647 / 0.0668 / 0.200; Sys 0.0483 / 0.0303 / 0.114
- GGAAACCGUGAACUC (pool 0.256) -> IR 0.409 / 0.273 / 0.419; LM 0.0970 / 0.134 / 0.100; Sys 0.0483 / 0 / 0
- GGAAACCGAAAUAAC (pool 0.336) -> IR 0.246 / 0.321 / 0.324; LM 0.0647 / 0.156 / 0.140; Sys 0.0644 / 0 / 0
- GGAAACCGGCCAGUC (pool 0.224) -> IR 0.0328 / 0.112 / 0.152; LM 0 / 0 / 0.0200; Sys 0 / 0 / 0
- GGAAACCGCGUUCAC (pool 0.272) -> IR 0.197 / 0.129 / 0; LM 0.0162 / 0.0223 / 0.0401; Sys 0 / 0 / 0